In PubChem BioAssay AID743269 (The Scripps Research Institute Molecular Screening Center, 2014):
Only a part is listed here, and it is no random draw. Some salts or complexes appear as unconnected parts, following the source record. Calls of active or inactive are those of the source.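 How the source made its calls: active means inhibition above the screen-wide mean plus 3 SD (cut at about 13% in these data); inactive means the rest.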

The compounds below were run on HIV-1 integrase (with human LEDGF/p75) (assay: blockers of LEDGF/p75-dependent integrase strand transfer – biochemical, TR-FRET, high throughput, primary screen (AID 743269;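 further: signal is the Cy5 over europium emission ratio at 671 and 618 nm; 0% = plate median of compound wells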)). Conditions: TR-FRET IN-LEDGF/p75 DNA integration, Eu/Cy5; at 3.7 µM; active compounds read high.
With `COc1ccccc1OP(C)(=O)Nc1ccc(C)c(C)c1` (centres undefined) the inhibition was inactive: 2.54%. With `COc1ccc(OP(C)(=O)Nc2ccccc2Br)cc1` (centres undefined) the inhibition was inactive: -1.29%. In the case of `O=C1C(O)=C([N+](=O)[O-])C(=O)C(O)=C1[N+](=O)[O-]`, the inhibition was inactive: 7.58%. With `Cc1cc(C)cc(OP(C)(=O)Nc2cccc(C(F)(F)F)c2)c1` (centres undefined) the inhibition was inactive: -4.25%. In the case of `CP(=O)(OCCOc1ccccc1)OCCOc1ccccc1`, the inhibition was inactive: 5.88%. In the case of `CCCCCCCCCCCCCCCC1C[N+](C)(C)CCOP(C)(=O)O1` (centres undefined), the inhibition was inactive: -2%. `CP(=O)(Nc1ccc(Cl)cc1Cl)Oc1ccccc1` (centres undefined) was tested, and the inhibition was inactive: -5.01%. For `COc1ccc(OP(C)(=O)Nc2ccccn2)cc1` (centres undefined), the inhibition was inactive: 4.84%. `CN(C)CCOC(=O)C(O)(c1ccccc1)C1CCCC1` (centres undefined) was tested, and the inhibition was inactive: 1.99%. In the case of `COc1ccccc1OP(C)(=O)Nc1ccc(Br)cc1` (centres undefined), the inhibition was inactive: -1%. `CP(=O)(Nc1ccccn1)Oc1ccccc1` (centres undefined) was tested, and the inhibition was inactive: 0.17%. With `COc1ccccc1OP(C)(=O)Nc1ccc(C)cc1C` (centres undefined) the inhibition was inactive: -1.29%. For `CCc1ccc(OP(C)(=O)O)cc1`, the inhibition was inactive: -4.34%. With `O=[N+]([O-])c1cc([N+](=O)[O-])c(Nc2ccccn2)c([N+](=O)[O-])c1` the inhibition was inactive: 2.83%. In the case of `Cc1c(NP(C)(=O)Oc2ccc(C(C)C)cc2)c(=O)n(-c2ccccc2)n1C` (centres undefined), the inhibition was inactive: -3.25%. In the case of `COc1ccccc1OP(C)(=O)Nc1c(C)n(C)n(-c2ccccc2)c1=O` (centres undefined), the inhibition was inactive: -0.76%. With `O=C(OCCCN1CCCC1)C(O)(c1ccccc1)C1CCCCC1` (centres undefined) the inhibition was inactive: -1.98%. In the case of `CP(=O)(Oc1ccccc1)N1CCOC1=O` (centres undefined), the inhibition was inactive: 0.16%. `CCc1ccc(OP(C)(=O)Nc2cccnc2)cc1` (centres undefined) was tested, and the inhibition was inactive: -0.89%. For `CCN(CC)CC(O)COC(=O)C(O)(c1ccccc1)C1CCCCC1` (centres undefined), the inhibition was inactive: 0.75%. With `COc1ccc(OP(C)(=O)Nc2ccc(Br)cc2)cc1` (centres undefined) the inhibition was inactive: 0.36%. In the case of `CN(C)C(=O)c1c([N+](=O)[O-])cc([N+](=O)[O-])cc1[N+](=O)[O-]`, the inhibition was inactive: -1.08%. For `CC(C)(C)c1ccc(OP(C)(=O)O)cc1`, the inhibition was inactive: 7.62%. In the case of `COc1ccccc1OP(C)(=O)Nc1ccccc1Br` (centres undefined), the inhibition was inactive: 5.22%. In the case of `CP(=O)(Nc1ccc(Cl)cc1)Oc1ccc(F)cc1` (centres undefined), the inhibition was inactive: -0.2%. With `CCOC(=O)c1ccc(NP(C)(=O)Oc2ccc(Cl)cc2)cc1` (centres undefined) the inhibition was active: 13.8%. In the case of `CP(=O)(OC12CC3CC(CC(C3)C1)C2)OC12CC3CC(CC(C3)C1)C2`, the inhibition was inactive: 10.3%. For `Nc1ccc2c(ccc3cccnc32)n1.O=[N+]([O-])c1cc([N+](=O)[O-])c(O)c([N+](=O)[O-])c1`, the inhibition was inactive: -0.82%. For `CN(C)CCOC(=O)C(O)(c1ccccc1)C1CCCCC1` (centres undefined), the inhibition was inactive: 0.06%. With `COc1ccc(NP(C)(=O)Oc2ccccc2OC)cc1` (centres undefined) the inhibition was inactive: -0.31%. `COc1ccc(OP(C)(=O)Nc2cccc(Br)c2)cc1` (centres undefined) was tested, and the inhibition was inactive: 0.55%. For `Cc1c(C(c2ccc3c(c2)OCO3)c2c(C)n(C)n(-c3ccccc3)c2=O)c(=O)n(-c2ccccc2)n1C.O=[N+]([O-])c1cc([N+](=O)[O-])c(O)c([N+](=O)[O-])c1`, the inhibition was inactive: -1.68%. For `O=[N+]([O-])c1ccc(OP2(=O)COCCO2)cc1` (centres undefined), the inhibition was inactive: 2.47%. `Cc1cc(-c2cccc3ccccc23)c(C)cn1.O=[N+]([O-])c1cc([N+](=O)[O-])c(O)c([N+](=O)[O-])c1` was tested, and the inhibition was inactive: 3.04%. With `O=[N+]([O-])c1cc([N+](=O)[O-])c(NCC2CCS(=O)(=O)C2)c([N+](=O)[O-])c1` (centres undefined) the inhibition was inactive: -1.13%. `CCOP(C)(=S)SCC(=O)NC(C)(CC)C(=O)O` (centres undefined) was tested, and the inhibition was inactive: 2.53%. For `CCOP(=O)(CC)OCC`, the inhibition was inactive: -2.16%. With `CP(=O)(Nc1ccc(SC(F)(F)F)cc1)Oc1ccc(F)cc1` (centres undefined) the inhibition was inactive: 7.34%. With `Cc1ccccc1NP(C)(=O)Nc1ccccc1C` the inhibition was inactive: 0.66%. In the case of `O=[N+]([O-])c1cc([N+](=O)[O-])c(C(F)(F)F)c([N+](=O)[O-])c1O`, the inhibition was inactive: 4.7%. `CP(=O)(Nc1ccc2c(c1)OCCO2)Oc1ccccc1` (centres undefined) was tested, and the inhibition was inactive: 3.83%. In the case of `CP(=O)(Nc1ccccc1F)Oc1ccccc1` (centres undefined), the inhibition was inactive: -0.77%. For `CC(C)c1ccc(OP(C)(=O)Nc2ccc(SC(F)(F)F)cc2)cc1` (centres undefined), the inhibition was inactive: 2.01%. `O=[N+]([O-])c1cc([N+](=O)[O-])c(Nc2ccc(Cl)cc2)c([N+](=O)[O-])c1` was tested, and the inhibition was inactive: 0.84%. For `COc1ccc2c(c1O)-c1c(O)c(OC)cc3c1[C@H](C2)[N+](C)(C)CC3.O=[N+]([O-])c1cc([N+](=O)[O-])c([O-])c([N+](=O)[O-])c1[O-]`, the inhibition was inactive: 1.05%. In the case of `O=C(OC1CN2CCC1CC2)c1ccc([N+](=O)[O-])cc1` (centres undefined), the inhibition was inactive: 2.92%. With `O=C(OCCN1CCN(CCOCc2ccccc2)CC1)C(O)(c1ccccc1)c1ccccc1` the inhibition was inactive: 0.37%. With `CCOC(=O)c1ccc(NP(C)(=O)Oc2ccc(F)cc2)cc1` (centres undefined) the inhibition was inactive: -1.22%. `COc1ccc(OP(C)(=O)Nc2ccc(SC(F)(F)F)cc2)cc1` (centres undefined) was tested, and the inhibition was inactive: 1.22%.
